Drawing on ChEMBL document CHEMBL1158369, “Hansch analysis of substituted benzoic acid benzylidene/furan-2-yl-methylene hydrazides as antimicrobial agents” (Eur J Med Chem, 2009), this text covers -logMIC for one compound.

Common to all, as to assay type: functional
The subject of one experiment is Staphylococcus aureus. The experiment in a line: Antibacterial activity against Staphylococcus aureus after 24 hrs by tube dilution method. The gist of the method: (§1)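 Twofold serial dilutions of test and standard compounds in double strength nutrient broth (I.P.); tubes incubated at 37 °C for 24 h. Growth judged visually; MIC taken as lowest concentration with no visible turbidity.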

A further experiment deals with Bacillus subtilis. The experiment in a line: Antibacterial activity against Bacillus subtilis after 24 hrs by tube dilution method. The gist of the method: as §1
The test system of the next experiment is Escherichia coli. Kind of experiment: Antibacterial activity against Escherichia coli after 24 hrs by tube dilution method. The gist of the method: as §1
A further experiment deals with Candida albicans. The experiment in a line: Antifungal activity against Candida albicans after 48 hrs by tube dilution method. The gist of the method: (§2)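 Twofold serial dilutions of test and standard compounds in Sabouraud dextrose broth (I.P.); C. albicans incubated 37 °C for 48 h, A. niger 25 °C for 7 d. Growth read visually; MIC is lowest concentration without visible growth.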

For the next experiment, the system named is Aspergillus niger. The experiment in a line: Antifungal activity against Aspergillus niger after 7 days by tube dilution method. The gist of the method: as §2

Regarding `O=C(N/N=C/c1cccc([N+](=O)[O-])c1)c1cc([N+](=O)[O-])cc([N+](=O)[O-])c1`, the -logMIC came to 2.34 in the experiment with Staphylococcus aureus; 2.48 in the experiment with Bacillus subtilis; 2.63 in the experiment with Escherichia coli; 1.76 in the experiment with Candida albicans; 1.76 in the experiment on Aspergillus niger.
